The source of these data is PMC7582914, “Cell-penetrating peptide-mediated cell entry of H5N1 highly pathogenic avian influenza virus” (2020).

Molecules are shown by their SMILES.

In data set [1] the test system is Lec8 cells. In words: Cell number and viability, trypan blue dye exclusion. Conditions: EIPA 10, 20 and 40 μM, 37 °C, 8 h, n = 3 (Fig. S9a).
Data set [2] concerns Raji cells. In words: Peptide uptake by flow cytometry, Raji cells. The settings on record: 10 µg/mL FITC-conjugated peptide, 60 min, 37 °C, then 0.1% trypsin-EDTA 10 min 37 °C, geometric MFI of FITC in viable cells relative to untreated cells, mean ± SEM, n = 3.
Data set [3] concerns HL-60 cells. Kind of data set: Peptide uptake by flow cytometry, HL-60 cells. The settings on record: 10 µg/mL FITC-conjugated peptide, 60 min, 37 °C, then 0.1% trypsin-EDTA 10 min 37 °C, geometric MFI of FITC in viable cells relative to untreated cells, mean ± SEM, n = 3. For orientation: Flow cytometry measures light scatter and fluorescence of single cells or particles in a stream.

The test system of data set [4] is MDCK cells. In words: Peptide uptake by flow cytometry, MDCK cells. Conditions: 10 µg/mL FITC-conjugated peptide in serum-free Opti-MEM, 60 min, 37 °C, harvested with 0.25% trypsin-EDTA, geometric MFI of FITC in viable cells relative to untreated cells, mean ± SEM, n = 3.
For data set [5], the system named is J774A.1 cells. Kind of data set: Peptide uptake by flow cytometry, J774A.1 cells. The settings on record: 10 µg/mL FITC-conjugated peptide, 60 min, 37 °C, then 0.1% trypsin-EDTA 10 min 37 °C, geometric MFI of FITC in viable cells relative to untreated cells, mean ± SEM, n = 3.
Data set [6] deals with COS-7 cells. In words: Peptide uptake by flow cytometry, COS-7 cells. The settings on record: 60 min, 37 °C.
In data set [7] the test system is COS-7 cells. Kind of data set: Confocal microscopy imaging of peptide internalisation, COS-7 cells. Conditions: living, unfixed, 10 μg/mL FITC-conjugated peptide, 60 min, 37 °C, representative of three experiments (Fig. 1b, S1).
Data set [8] has as its system U937 cells. In words: Peptide uptake by flow cytometry, U937 cells. Conditions: 10 µg/mL FITC-conjugated peptide, 60 min, 37 °C, then 0.1% trypsin-EDTA 10 min 37 °C, geometric MFI of FITC in viable cells relative to untreated cells, mean ± SEM, n = 3.
For data set [9], the system named is THP-1 cells. Kind of data set: Peptide uptake by flow cytometry, THP-1 cells. Conditions: 10 µg/mL FITC-conjugated peptide, 60 min, 37 °C, then 0.1% trypsin-EDTA 10 min 37 °C, geometric MFI of FITC in viable cells relative to untreated cells, mean ± SEM, n = 3.
Data set [10] can be described thus: Peptide distribution in lung tissue, mouse intranasal inhalation model. Conditions: C57BL/6 N mice, 25 μg FITC-conjugated peptide, lungs isolated 15 min after inhalation, anti-fluorescein immunostaining, confocal microscopy, five experiments (Fig. 2b).
The subject of data set [11] is Jurkat cells. In words: Peptide uptake by flow cytometry, Jurkat cells. Conditions: 10 µg/mL FITC-conjugated peptide, 60 min, 37 °C, then 0.1% trypsin-EDTA 10 min 37 °C, geometric MFI of FITC in viable cells relative to untreated cells, mean ± SEM, n = 3.
Data set [12] has as its system NIH/3T3 cells. In words: Peptide uptake by flow cytometry, NIH/3T3 cells. Conditions: 10 µg/mL FITC-conjugated peptide in serum-free Opti-MEM, 60 min, 37 °C, harvested with 0.25% trypsin-EDTA, geometric MFI of FITC in viable cells relative to untreated cells, mean ± SEM, n = 3.
Data set [13] has as its system HeLa cells. Kind of data set: Peptide uptake by flow cytometry, HeLa cells. Conditions: 10 µg/mL FITC-conjugated peptide in serum-free Opti-MEM, 60 min, 37 °C, harvested with 0.25% trypsin-EDTA, geometric MFI of FITC in viable cells relative to untreated cells, mean ± SEM, n = 3.
In data set [14] the test system is A549 cells. Kind of data set: Peptide uptake by flow cytometry, A549 cells. The settings on record: 10 µg/mL FITC-conjugated peptide in serum-free Opti-MEM, 60 min, 37 °C, harvested with 0.25% trypsin-EDTA, geometric MFI of FITC in 7-AAD-negative viable cells relative to untreated cells, mean ± SEM, n = 3.
Data set [15] concerns KU812 cells. In words: Peptide uptake by flow cytometry, KU812 cells.

As to `CCN(c1nc(N)c(C(=O)NC(=N)N)nc1Cl)C(C)C`, the “Total cell number and cell viability” value in data set [1] is listed as “not affected”.

For the compound `N=C(N)NCCC[C@H](NC(=O)[C@H](CCCNC(=N)N)NC(=O)[C@H](CCCNC(=N)N)NC(=O)[C@H](CCC(N)=O)NC(=O)[C@H](CCCNC(=N)N)NC(=O)[C@H](CCCNC(=N)N)NC(=O)[C@H](CCCCN)NC(=O)[C@H](CCCCN)NC(=O)[C@H](CCCNC(=N)N)NC(=O)CNC(=O)[C@H](Cc1ccc(O)cc1)NC(=O)CCCCCNC(=S)Nc1ccc2c(c1)C(=O)OC21c2ccc(O)cc2Oc2cc(O)ccc21)C(=O)O`, the Relative fluorescence intensity in data set [2] is listed as 29.5 ± 4.1 fold change; in data set [3] it was 25.6 ± 3.6 fold change; in [4], 58.7 ± 17.4 fold change; in data set [5] it was 68.0 ± 8.9 fold change; in data set [6] (10 µg/mL FITC-conjugated peptide in Opti-MEM, harvested with 0.25% trypsin-EDTA, geometric MFI of FITC in viable cells relative to untreated cells, mean ± SEM, n = 3), 59.2 ± 7.3 fold change; in data set [8], 43.5 ± 9.6 fold change. The Relative fluorescence intensity in data set [9] was 37.6 ± 7.5 fold change; in [11] it was 32.7 ± 3.3 fold change; in data set [12], 55.0 ± 23.1 fold change; in data set [13], 90.0 ± 12.3 fold change; in data set [14], 31.4 ± 1.8 fold change; in data set [15] (10 µg/mL FITC-conjugated peptide in Opti-MEM, 60 min, 37 °C, then 0.1% trypsin-EDTA 10 min 37 °C, flow cytometry, geometric MFI of FITC in viable cells relative to untreated cells, mean ± SEM, n = 3) it was 89.7 ± 3.4 fold change. The “Geometric mean fluorescence intensity (MFI) in viable cells” value in data set [6] (10 μg/mL FITC-conjugated peptide, n = 3 (Fig. 1c), result in words) is “significant increase of MFI”; in data set [15] (10 μg/mL FITC-conjugated peptide, 37 °C, 60 min, flow cytometry, n = 3 (Fig. 1c), result in words) it was “significant increase of MFI”. Moreover, the “Internalisation and localisation of peptide by confocal microscopy” value in [7] was “localised in both the cytoplasm and nucleus”. The “Peptide distribution in lung tissue sections” value in data set [10] is listed as “wide distribution”. In data set [15] (10 µg/mL FITC-conjugated peptide 60 min 37 °C, then with or without 0.1% trypsin-EDTA 10 min 37 °C, n = 3 (Fig. S3)), the “Increase of MFI after removal of surface-bound peptide with trypsin” value is “persisted even after trypsin treatment”. For the same compound, in data set [15] (10 μg/mL FITC-conjugated peptide, 37 °C, 30, 60, 120, 180 and 240 min, flow cytometry MFI, n = 3 (Fig. S2)), the “Incubation time at which peptide uptake was maximal” value is 30 min.
